Data set [1] deals with WNV replicon expressing Vero cells. Briefly: Replicon inhibition assay (Renilla luciferase), WNV replicon expressing Vero cells. Type of data set: cell-based, West Nile virus (WNV). The conditions noted are these: therapeutic index from CC50 and EC50. As for the experimental part: (§1) Baby Hamster Kidney (BHK) and African green monkey kidney epithelial cells (Vero) were cultured in Dulbecco's Modified Eagle Medium (DMEM) (Cellgro®; Mediatech, Inc., Manassas, Va.) supplemented with 10% fetal bovine serum, MEM nonessential amino acid (Cellgro®) (5 ml/liter), and Penicillin-Streptomycin (2.5 ml/liter). Dengue 2 replicon expressing BHK cells and WNV replicon expressing Vero cells were cultured in DMEM as described above containing additionally Geneticin or G418 (Fisher Scientific®, Pittsburgh, Pa.) to maintain the selective pressure of the replicon expressing cells.
Dengue 2 replicon expressing BHK cells and WNV replicon expressing Vero cells were plated 100 μl into a black 96 well plate (Greiner Bio-One; Monroe, N.C.) with 10^5 cells/ml concentrations. […] A Renilla luciferase assay was performed with the addition of 50 μl substrate (Promega Corporation; Madison, Wis.) with a 2 second delay and a 10 second measurement in a Centro LB 960 plate luminescence plate reader (Berthold Technologies; Oak Ridge, Tenn.). The data was analyzed and plotted with GraphPad Prism 5 (GraphPad Software, Inc.; La Jolla, Calif.).
Specifically, the cells were prepared as above and the concentration of the compounds were varied (see Table 2). Renilla luciferase activity was measured as described above 24 hours after the addition of the compounds.
(In antiviral work, replicon cells carry a viral genome segment that copies itself.)

The test system of data set [2] is Dengue 2 replicon expressing BHK cells. The data set can be described thus: Replicon inhibition assay (Renilla luciferase), Dengue 2 replicon expressing BHK cells. Type of data set: cell-based, Dengue virus (DENV2). The conditions noted are these: DENV-BKH cells; from CC50 and EC50; ratio CC50 / EC50. The procedure: as §1
Dengue 2 replicon expressing BHK cells and WNV replicon expressing Vero cells were plated 100 μl into a black 96 well plate (Greiner Bio-One; Monroe, N.C.) with 10^5 cells/ml concentrations. After 6 hours of incubation, 1 μl of each compound diluted in DMSO to 2.5 mM was added into each well to obtain a 25 μM as the final concentration. Cells were incubated at 37° C. in a humidified CO2 (5%) chamber for 24 hours. The media was then removed and the cells are washed with PBS before adding 20 μl of lysis buffer to each well. A Renilla luciferase assay was performed with the addition of 50 μl substrate (Promega Corporation; Madison, Wis.) with a 2 second delay and a 10 second measurement in a Centro LB 960 plate luminescence plate reader (Berthold Technologies; Oak Ridge, Tenn.). The data was analyzed and plotted with GraphPad Prism 5 (GraphPad Software, Inc.; La Jolla, Calif.).
Renilla luciferase activity was measured as described above 24 hours after the addition of the compounds.

The structures appear in SMILES notation. For part of these data: Which two values form the index is not stated here.

`Oc1c(CN2CCOCC2)cc(Cl)c2cccnc12` [Compound 34]: in data set [1], the TI is on record as 24.82. Besides, the “TI (Therapeutic Index)” value in data set [2] is listed as 4.8557.

As for `Oc1c(CN2CCOCC2)ccc2cccnc12` [Compound 33], the “TI (Therapeutic Index)” value in data set [2] came to 42863.4.

`CCN(CC)Cc1cc(Cl)c2cccnc2c1O` [Compound 35] came in with a TI in data set [1] of 18.04. Also, in data set [2], the “TI (Therapeutic Index)” value turned out to be 29.8551.

For `Oc1c(CN2CCOCC2)cc(Cl)c2c1NCCC2` [Compound 36], in data set [2], the “TI (Therapeutic Index)” value worked out at 3.487.

Source of the values: US8563580B2, “Flavivirus inhibitors and methods for their use” (Georgetown University, priority 2008, dated 2013).
